Read-outs that look alike come from different tables or passages of the source.
Legend:
[1] = target: T1, hNav1.7 (Homo sapiens, UniProt Q15858, W1161R); assay: hNav1.7 IC50 (nM) | TETRA; conditions: read-out: hNav1.7 IC50 (nM) | TETRA
[2] = target: T1, hNav1.7; assay: hNav1.7 IC50 (nM) | QP; conditions: read-out: hNav1.7 IC50 (nM) | QP
[3] = target: T2, hNav1.6 (Homo sapiens, UniProt Q9UQD0); assay: hNav1.6 IC50 (nM) | QP; conditions: read-out: hNav1.6 IC50 (nM) | QP
[4] = target: hNav1.2 (Homo sapiens, UniProt Q99250); assay: hNav1.2 IC50 (nM) | QP; conditions: read-out: hNav1.2 IC50 (nM) | QP
[5] = target: T3, Nav1.7 (Homo sapiens, UniProt Q15858, W1161R); assay: IC50 (Nav1.7) µM; conditions: read-out: IC50 (Nav1.7) µM
[6] = target: T3, Nav1.7; assay: IC50 (Nav1.7) µM; conditions: read-out: IC50 (Nav1.7) µM; remark: listed apart in the source
[7] = target: T4, Nav1.2 (Homo sapiens, UniProt Q99250); assay: IC50 (Nav1.2) µM; conditions: read-out: IC50 (Nav1.2) µM
[8] = target: T4, Nav1.2; assay: IC50 (Nav1.2) µM; conditions: read-out: IC50 (Nav1.2) µM; remark: listed apart in the source
[9] = system: rat model of nociceptive pain; assay: Randall-Selitto paw pressure test after local dorsal hind paw injection; assay type: in vivo
[10] = target: hNav1.1 (Homo sapiens, UniProt P35498); assay: hNav1.1 IC50 (nM) | QP; conditions: read-out: hNav1.1 IC50 (nM) | QP
[11] = target: T2, hNav1.6; assay: hNav1.6 IC50 (nM) | TETRA; conditions: read-out: hNav1.6 IC50 (nM) | TETRA

Sequences of proteins named here, by UniProt entry; tags and fusion partners are left off.
UniProt Q15858, whole entry W1161R, looked up: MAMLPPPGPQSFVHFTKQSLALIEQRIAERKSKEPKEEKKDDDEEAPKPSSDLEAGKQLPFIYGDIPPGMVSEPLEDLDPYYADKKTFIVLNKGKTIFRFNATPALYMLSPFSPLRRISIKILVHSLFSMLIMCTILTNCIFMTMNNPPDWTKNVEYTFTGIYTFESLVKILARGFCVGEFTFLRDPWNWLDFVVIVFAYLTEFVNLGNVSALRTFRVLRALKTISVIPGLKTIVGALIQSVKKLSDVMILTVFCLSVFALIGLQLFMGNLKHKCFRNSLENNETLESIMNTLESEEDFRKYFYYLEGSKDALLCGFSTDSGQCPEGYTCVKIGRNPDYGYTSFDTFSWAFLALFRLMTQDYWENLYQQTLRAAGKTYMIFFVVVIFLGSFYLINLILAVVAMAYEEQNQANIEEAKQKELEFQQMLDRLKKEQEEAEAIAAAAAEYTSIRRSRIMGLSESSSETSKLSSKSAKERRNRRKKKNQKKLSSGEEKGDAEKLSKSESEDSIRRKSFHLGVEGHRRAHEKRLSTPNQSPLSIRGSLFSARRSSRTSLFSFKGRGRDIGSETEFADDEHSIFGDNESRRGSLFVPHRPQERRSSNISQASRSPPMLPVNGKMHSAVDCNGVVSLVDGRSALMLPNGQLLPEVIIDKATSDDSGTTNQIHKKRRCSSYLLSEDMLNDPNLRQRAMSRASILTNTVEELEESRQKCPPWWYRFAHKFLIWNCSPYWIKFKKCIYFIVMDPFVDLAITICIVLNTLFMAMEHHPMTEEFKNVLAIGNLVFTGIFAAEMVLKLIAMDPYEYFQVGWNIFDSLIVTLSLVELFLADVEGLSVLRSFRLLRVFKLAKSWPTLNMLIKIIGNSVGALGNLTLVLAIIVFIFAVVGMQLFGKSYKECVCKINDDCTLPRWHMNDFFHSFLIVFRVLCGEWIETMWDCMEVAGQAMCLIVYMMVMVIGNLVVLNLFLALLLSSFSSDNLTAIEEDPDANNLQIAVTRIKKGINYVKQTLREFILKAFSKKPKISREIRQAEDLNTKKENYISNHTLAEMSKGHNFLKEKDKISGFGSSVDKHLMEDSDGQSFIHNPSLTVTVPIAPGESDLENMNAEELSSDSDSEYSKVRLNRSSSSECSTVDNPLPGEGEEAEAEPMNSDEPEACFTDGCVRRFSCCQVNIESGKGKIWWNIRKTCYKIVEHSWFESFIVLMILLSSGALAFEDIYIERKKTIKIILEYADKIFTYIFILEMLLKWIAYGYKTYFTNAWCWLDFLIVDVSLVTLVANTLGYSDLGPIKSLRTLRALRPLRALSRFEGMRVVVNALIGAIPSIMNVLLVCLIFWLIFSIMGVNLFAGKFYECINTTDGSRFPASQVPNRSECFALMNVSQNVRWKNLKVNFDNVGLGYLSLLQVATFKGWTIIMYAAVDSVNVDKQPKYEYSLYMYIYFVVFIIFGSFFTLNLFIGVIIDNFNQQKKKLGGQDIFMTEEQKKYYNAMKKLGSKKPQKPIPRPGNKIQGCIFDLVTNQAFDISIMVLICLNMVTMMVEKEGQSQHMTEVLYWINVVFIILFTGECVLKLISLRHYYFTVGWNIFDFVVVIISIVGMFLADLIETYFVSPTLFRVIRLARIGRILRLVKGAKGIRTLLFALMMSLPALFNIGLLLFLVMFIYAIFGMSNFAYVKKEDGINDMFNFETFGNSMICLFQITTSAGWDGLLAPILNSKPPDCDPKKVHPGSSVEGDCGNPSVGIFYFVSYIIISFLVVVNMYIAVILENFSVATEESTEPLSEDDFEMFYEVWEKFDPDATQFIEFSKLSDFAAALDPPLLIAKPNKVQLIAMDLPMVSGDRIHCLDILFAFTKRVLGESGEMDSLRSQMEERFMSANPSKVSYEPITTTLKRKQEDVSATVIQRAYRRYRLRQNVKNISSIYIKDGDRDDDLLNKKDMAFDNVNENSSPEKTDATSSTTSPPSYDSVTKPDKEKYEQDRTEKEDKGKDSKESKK
UniProt Q9UQD0, whole entry, looked up: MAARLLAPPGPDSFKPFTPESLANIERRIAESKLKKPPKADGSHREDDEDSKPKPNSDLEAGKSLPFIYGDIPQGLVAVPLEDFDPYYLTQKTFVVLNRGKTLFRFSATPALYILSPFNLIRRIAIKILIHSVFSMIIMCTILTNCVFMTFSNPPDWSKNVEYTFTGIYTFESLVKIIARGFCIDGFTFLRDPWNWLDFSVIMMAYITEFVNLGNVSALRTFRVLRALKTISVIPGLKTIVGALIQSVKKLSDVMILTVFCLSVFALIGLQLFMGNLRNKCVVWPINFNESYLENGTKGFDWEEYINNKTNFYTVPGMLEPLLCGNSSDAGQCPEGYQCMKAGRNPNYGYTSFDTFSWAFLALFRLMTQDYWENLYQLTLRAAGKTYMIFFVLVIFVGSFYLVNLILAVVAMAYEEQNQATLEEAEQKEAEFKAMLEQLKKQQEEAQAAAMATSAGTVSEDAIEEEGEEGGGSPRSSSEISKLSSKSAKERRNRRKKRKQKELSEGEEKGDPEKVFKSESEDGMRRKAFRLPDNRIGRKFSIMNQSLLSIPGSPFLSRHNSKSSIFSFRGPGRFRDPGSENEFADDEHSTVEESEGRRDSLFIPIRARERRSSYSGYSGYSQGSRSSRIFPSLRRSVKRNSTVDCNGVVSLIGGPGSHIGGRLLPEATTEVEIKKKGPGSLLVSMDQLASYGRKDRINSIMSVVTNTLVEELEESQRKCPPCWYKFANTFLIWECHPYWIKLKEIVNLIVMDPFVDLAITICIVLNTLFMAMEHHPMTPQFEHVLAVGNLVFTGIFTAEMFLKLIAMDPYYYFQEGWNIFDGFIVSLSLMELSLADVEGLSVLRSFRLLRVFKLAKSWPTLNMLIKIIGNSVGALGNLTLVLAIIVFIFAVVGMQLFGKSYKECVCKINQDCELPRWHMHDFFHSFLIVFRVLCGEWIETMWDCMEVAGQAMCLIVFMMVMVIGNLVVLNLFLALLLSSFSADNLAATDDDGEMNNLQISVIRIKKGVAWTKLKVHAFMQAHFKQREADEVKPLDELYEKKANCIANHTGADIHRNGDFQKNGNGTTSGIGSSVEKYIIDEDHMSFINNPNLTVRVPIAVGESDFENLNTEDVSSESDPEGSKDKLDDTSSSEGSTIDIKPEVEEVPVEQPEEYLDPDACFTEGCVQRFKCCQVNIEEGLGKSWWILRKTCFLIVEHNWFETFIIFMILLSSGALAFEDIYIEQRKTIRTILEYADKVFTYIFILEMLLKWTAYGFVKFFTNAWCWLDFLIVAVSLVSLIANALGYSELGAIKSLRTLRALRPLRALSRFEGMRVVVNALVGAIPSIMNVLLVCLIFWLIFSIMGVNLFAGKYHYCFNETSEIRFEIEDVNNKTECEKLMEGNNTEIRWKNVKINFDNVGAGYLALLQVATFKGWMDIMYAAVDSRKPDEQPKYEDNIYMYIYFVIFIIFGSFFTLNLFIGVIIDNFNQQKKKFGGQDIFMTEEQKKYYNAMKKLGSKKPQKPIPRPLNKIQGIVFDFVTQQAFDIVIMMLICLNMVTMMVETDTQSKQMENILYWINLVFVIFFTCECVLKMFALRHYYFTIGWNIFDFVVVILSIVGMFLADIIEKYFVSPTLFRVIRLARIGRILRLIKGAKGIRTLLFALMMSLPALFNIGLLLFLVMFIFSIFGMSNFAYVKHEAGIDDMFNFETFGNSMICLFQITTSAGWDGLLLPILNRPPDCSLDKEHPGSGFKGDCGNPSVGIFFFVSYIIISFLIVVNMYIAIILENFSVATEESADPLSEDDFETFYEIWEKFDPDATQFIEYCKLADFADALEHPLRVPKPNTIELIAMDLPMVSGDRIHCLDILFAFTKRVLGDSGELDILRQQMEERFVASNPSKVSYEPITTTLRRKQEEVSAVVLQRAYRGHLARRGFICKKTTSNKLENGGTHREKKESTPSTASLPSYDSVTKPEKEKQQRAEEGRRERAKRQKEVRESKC
UniProt Q99250, whole entry, looked up: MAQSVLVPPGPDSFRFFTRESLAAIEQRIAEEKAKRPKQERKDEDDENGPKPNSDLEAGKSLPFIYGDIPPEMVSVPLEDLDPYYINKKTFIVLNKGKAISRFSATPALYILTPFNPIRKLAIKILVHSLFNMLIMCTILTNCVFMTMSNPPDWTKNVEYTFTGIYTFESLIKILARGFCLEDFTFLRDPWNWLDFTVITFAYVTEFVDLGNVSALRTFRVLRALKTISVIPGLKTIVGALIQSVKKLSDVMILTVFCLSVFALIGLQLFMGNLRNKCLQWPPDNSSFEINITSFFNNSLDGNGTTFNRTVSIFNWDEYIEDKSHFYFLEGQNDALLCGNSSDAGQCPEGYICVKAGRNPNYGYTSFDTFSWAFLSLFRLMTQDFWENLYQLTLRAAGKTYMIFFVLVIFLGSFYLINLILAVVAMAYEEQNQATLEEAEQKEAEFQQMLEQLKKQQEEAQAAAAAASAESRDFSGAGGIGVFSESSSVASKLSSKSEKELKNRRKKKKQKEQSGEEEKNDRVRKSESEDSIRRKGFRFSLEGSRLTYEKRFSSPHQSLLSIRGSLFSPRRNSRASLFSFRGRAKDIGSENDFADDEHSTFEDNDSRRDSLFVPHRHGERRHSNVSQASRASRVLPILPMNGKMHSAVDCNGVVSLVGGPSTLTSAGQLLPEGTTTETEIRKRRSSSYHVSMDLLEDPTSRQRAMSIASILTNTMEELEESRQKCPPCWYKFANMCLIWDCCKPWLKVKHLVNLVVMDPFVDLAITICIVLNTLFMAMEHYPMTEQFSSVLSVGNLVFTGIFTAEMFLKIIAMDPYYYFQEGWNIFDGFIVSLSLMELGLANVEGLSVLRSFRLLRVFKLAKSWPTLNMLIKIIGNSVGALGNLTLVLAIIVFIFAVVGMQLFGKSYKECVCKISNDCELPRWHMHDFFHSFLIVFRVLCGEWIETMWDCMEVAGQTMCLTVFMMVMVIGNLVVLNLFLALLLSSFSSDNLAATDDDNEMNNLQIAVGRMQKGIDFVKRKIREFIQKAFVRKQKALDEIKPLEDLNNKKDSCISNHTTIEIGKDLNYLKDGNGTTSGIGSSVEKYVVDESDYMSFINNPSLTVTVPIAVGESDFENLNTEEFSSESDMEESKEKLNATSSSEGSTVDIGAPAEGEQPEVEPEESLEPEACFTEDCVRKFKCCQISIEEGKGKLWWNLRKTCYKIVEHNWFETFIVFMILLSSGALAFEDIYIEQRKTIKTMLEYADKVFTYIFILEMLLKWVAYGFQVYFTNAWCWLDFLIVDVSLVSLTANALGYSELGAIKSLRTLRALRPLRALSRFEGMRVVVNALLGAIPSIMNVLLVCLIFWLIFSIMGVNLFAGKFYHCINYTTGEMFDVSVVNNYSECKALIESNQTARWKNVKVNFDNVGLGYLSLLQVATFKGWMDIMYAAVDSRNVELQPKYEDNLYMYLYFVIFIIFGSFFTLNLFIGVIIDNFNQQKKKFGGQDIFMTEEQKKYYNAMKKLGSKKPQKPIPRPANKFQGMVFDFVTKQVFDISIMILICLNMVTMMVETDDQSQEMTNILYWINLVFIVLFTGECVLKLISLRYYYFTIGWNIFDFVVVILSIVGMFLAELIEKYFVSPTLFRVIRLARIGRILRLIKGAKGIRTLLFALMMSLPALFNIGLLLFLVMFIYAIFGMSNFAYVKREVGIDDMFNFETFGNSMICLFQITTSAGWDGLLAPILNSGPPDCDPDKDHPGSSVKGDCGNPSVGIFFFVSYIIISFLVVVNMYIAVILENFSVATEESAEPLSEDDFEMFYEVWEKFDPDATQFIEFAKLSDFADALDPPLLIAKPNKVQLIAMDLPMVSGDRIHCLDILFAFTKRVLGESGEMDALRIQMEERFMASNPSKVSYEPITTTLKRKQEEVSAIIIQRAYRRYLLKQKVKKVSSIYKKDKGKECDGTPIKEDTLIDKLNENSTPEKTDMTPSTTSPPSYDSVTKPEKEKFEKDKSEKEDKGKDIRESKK

Compound	IC50 [2] [nM]	IC50 [5] [µM]	IC50 [6] [µM]	IC50 [7] [µM]	IC50 [8] [µM]	other results
CC[C@H](C)[C@@H]1NC(=O)[C@H](CCC(=O)O)NC(=O)[C@H](CC(C)C)NC(=O)[C@@H](NC(=O)[C@H](CC(N)=O)NC(=O)[C@@H]2CCCN2C(=O)CN)CSSC[C@@H]2NC(=O)[C@@H]3CSSC[C@@H](C(=O)N[C@@H](CCCCN)C(=O)N[C@@H](Cc4ccc(O)cc4)C(=O)N[C@@H](CO)C(=O)N[C@H](C(=O)N[C@H](C(=O)N[C@@H](CCCCN)C(=O)O)[C@@H](C)CC)[C@@H](C)CC)NC(=O)[C@H](Cc4c[nH]c5ccccc45)NC(=O)[C@H](CCCNC(=N)N)NC(=O)[C@H]([C@@H](C)O)NC(=O)[C@H](CCCCN)NC(=O)[C@H](CCCCN)NC(=O)[C@H](CO)NC(=O)[C@H](CSSC[C@H](NC(=O)[C@H](C)NC(=O)[C@H](CCCCN)NC(=O)[C@H](Cc4ccccc4)NC1=O)C(=O)N[C@@H](CC(N)=O)C(=O)N1CCC[C@H]1C(=O)N[C@@H](CO)C(=O)N[C@@H](CC(N)=O)C(=O)N[C@@H](CC(=O)O)C(=O)N[C@@H](CCC(N)=O)C(=O)N3)NC(=O)[C@H](C(C)C)NC(=O)[C@H](CC(C)C)NC(=O)[C@H](CCCCN)NC(=O)[C@H](CC(N)=O)NC(=O)[C@H](CO)NC(=O)[C@H](CCCCN)NC2=O	32					IC50 [1]: 208 nM; IC50 [3]: 202 nM; IC50 [4]: 567 nM
CC[C@H](C)[C@H](NC(=O)[C@H](CO)NC(=O)[C@H](Cc1c[nH]c2ccccc12)NC(=O)[C@H](CCCCN)NC(=O)[C@@H]1CSSC[C@@H]2NC(=O)[C@H](CCC(N)=O)NC(=O)[C@H](CC(=O)O)NC(=O)[C@H](CC(N)=O)NC(=O)[C@H](CO)NC(=O)[C@@H]3CCCN3C(=O)[C@H](CC(N)=O)NC(=O)[C@@H]3CSSC[C@H](NC(=O)[C@H](C(C)C)NC(=O)[C@H](CC(C)C)NC(=O)[C@H](CCCCN)NC(=O)[C@H](CO)NC(=O)[C@H](CO)NC(=O)[C@H](CCCCN)NC(=O)[C@H](CSSC[C@H](NC(=O)[C@H](CC(N)=O)NC(=O)[C@@H]4CCCN4C(=O)CN)C(=O)N[C@@H](CC(C)C)C(=O)N[C@@H](CCCNC(=N)N)C(=O)N[C@@H]([C@@H](C)CC)C(=O)N[C@@H](Cc4ccccc4)C(=O)N[C@@H](CCCCN)C(=O)N[C@@H](C)C(=O)N3)NC2=O)C(=O)N[C@@H](CO)C(=O)N[C@@H](CCCNC(=N)N)C(=O)N[C@@H](Cc2c[nH]cn2)C(=O)N[C@@H]([C@@H](C)O)C(=O)N[C@@H](CCCNC(=N)N)C(=O)N[C@@H](Cc2c[nH]c3ccccc23)C(=O)N1)C(=O)NCC(=O)N[C@@H](CCCCN)C(=O)O	8					
CC[C@H](C)[C@H](NC(=O)[C@H](CCC(N)=O)NC(=O)[C@H](Cc1c[nH]c2ccccc12)NC(=O)[C@H](CCCCN)NC(=O)[C@@H]1CSSC[C@@H]2NC(=O)[C@H](CCC(N)=O)NC(=O)[C@H](CC(=O)O)NC(=O)[C@H](CC(N)=O)NC(=O)[C@H](CO)NC(=O)[C@@H]3CCCN3C(=O)[C@H](CC(N)=O)NC(=O)[C@@H]3CSSC[C@H](NC(=O)[C@H](C(C)C)NC(=O)[C@H](CC(C)C)NC(=O)[C@H](CCCCN)NC(=O)[C@H](CO)NC(=O)[C@H](CO)NC(=O)[C@H](CCCCN)NC(=O)[C@H](CSSC[C@H](NC(=O)[C@H](CCC(=O)O)NC(=O)[C@@H]4CCCN4C(=O)CN)C(=O)N[C@@H](CC(C)C)C(=O)N[C@@H](CCC(=O)O)C(=O)N[C@@H]([C@@H](C)CC)C(=O)N[C@@H](Cc4ccccc4)C(=O)N[C@@H](CCCCN)C(=O)N[C@@H](C)C(=O)N3)NC2=O)C(=O)N[C@@H](CO)C(=O)N[C@@H](CCCNC(=N)N)C(=O)N[C@@H](CCCCN)C(=O)N[C@@H]([C@@H](C)O)C(=O)N[C@@H](CCCNC(=N)N)C(=O)N[C@@H](Cc2c[nH]c3ccccc23)C(=O)N1)C(=O)NCC(=O)N[C@@H](CCCCN)C(=O)O		0.02	0.01	0.26	0.01	
CC[C@H](C)[C@H](NC(=O)[C@H](CO)NC(=O)[C@H](Cc1c[nH]c2ccccc12)NC(=O)[C@H](CCCCN)NC(=O)[C@@H]1CSSC[C@@H]2NC(=O)[C@H](CCC(N)=O)NC(=O)[C@H](CC(=O)O)NC(=O)[C@H](CC(N)=O)NC(=O)[C@H](CO)NC(=O)[C@@H]3CCCN3C(=O)[C@H](CC(N)=O)NC(=O)[C@@H]3CSSC[C@H](NC(=O)[C@H](C(C)C)NC(=O)[C@H](CC(C)C)NC(=O)[C@H](CCCCN)NC(=O)[C@H](CO)NC(=O)[C@H](CO)NC(=O)[C@H](CCCCN)NC(=O)[C@H](CSSC[C@H](NC(=O)[C@H](CC(N)=O)NC(=O)[C@@H]4CCCN4C(=O)CN)C(=O)N[C@@H](CC(C)C)C(=O)N[C@@H](CCCNC(=N)N)C(=O)N[C@@H]([C@@H](C)CC)C(=O)N[C@@H](Cc4ccccc4)C(=O)N[C@@H](CCCCN)C(=O)N[C@@H](C)C(=O)N3)NC2=O)C(=O)N[C@@H](CO)C(=O)N[C@@H](CC(=O)O)C(=O)N[C@@H](CCCCN)C(=O)N[C@@H]([C@@H](C)O)C(=O)N[C@@H](CCCNC(=N)N)C(=O)N[C@@H](Cc2c[nH]c3ccccc23)C(=O)N1)C(=O)NCC(=O)N[C@@H](CCCCN)C(=O)O	8					
CC[C@H](C)[C@H](NC(=O)[C@H](CO)NC(=O)[C@H](Cc1ccc(O)cc1)NC(=O)[C@H](CCCCN)NC(=O)[C@@H]1CSSC[C@@H]2NC(=O)[C@H](CCC(N)=O)NC(=O)[C@H](CC(=O)O)NC(=O)[C@H](CC(N)=O)NC(=O)[C@H](CO)NC(=O)[C@@H]3CCCN3C(=O)[C@H](CC(N)=O)NC(=O)[C@@H]3CSSC[C@H](NC(=O)[C@H](C(C)C)NC(=O)[C@H](CC(C)C)NC(=O)[C@H](CCCCN)NC(=O)[C@H](CO)NC(=O)[C@H](CO)NC(=O)[C@H](CCCCN)NC(=O)[C@H](CSSC[C@H](NC(=O)[C@H](CCC(=O)O)NC(=O)[C@@H]4CCCN4C(=O)CN)C(=O)N[C@@H](CC(C)C)C(=O)N[C@@H](CCC(=O)O)C(=O)N[C@@H]([C@@H](C)CC)C(=O)N[C@@H](Cc4ccccc4)C(=O)N[C@@H](CCCCN)C(=O)N[C@@H](C)C(=O)N3)NC2=O)C(=O)N[C@@H](CO)C(=O)N[C@@H](CCCNC(=N)N)C(=O)N[C@@H](CCCCN)C(=O)N[C@@H]([C@@H](C)O)C(=O)N[C@@H](CCCNC(=N)N)C(=O)N[C@@H](Cc2c[nH]c3ccccc23)C(=O)N1)C(=O)NCC(=O)N[C@@H](CCCCN)C(=O)O		0.02	0.03	0.08	0.04	
CCNCSSKWCRDHSRCC-NH2						paw pressure threshold vs vehicle-treated animals ([9]; 3 nmoles s.c. dorsal hind paw): did not reach statistical significance; paw pressure threshold vs vehicle-treated animals ([9]; 30 nmoles s.c. dorsal hind paw): did not reach statistical significance; AUC of gram thresholds (mean vehicle AUC subtracted), comparison between dose groups ([9]; Pre and 5-60 min): no significant difference
CC[C@H](C)[C@H](NC(=O)[C@H](CCC(N)=O)NC(=O)[C@H](Cc1ccc(O)cc1)NC(=O)[C@H](CCCCN)NC(=O)[C@@H]1CSSC[C@@H]2NC(=O)[C@H](CCC(N)=O)NC(=O)[C@H](CC(=O)O)NC(=O)[C@H](CC(N)=O)NC(=O)[C@H](CO)NC(=O)[C@@H]3CCCN3C(=O)[C@H](CC(N)=O)NC(=O)[C@@H]3CSSC[C@H](NC(=O)[C@H](C(C)C)NC(=O)[C@H](CC(C)C)NC(=O)[C@H](CCCCN)NC(=O)[C@H](CO)NC(=O)[C@H](CO)NC(=O)[C@H](CCCCN)NC(=O)[C@H](CSSC[C@H](NC(=O)[C@H](CCC(=O)O)NC(=O)[C@@H]4CCCN4C(=O)CN)C(=O)N[C@@H](CC(C)C)C(=O)N[C@@H](CCCNC(=N)N)C(=O)N[C@@H]([C@@H](C)CC)C(=O)N[C@@H](Cc4ccccc4)C(=O)N[C@@H](CCCCN)C(=O)N[C@@H](C)C(=O)N3)NC2=O)C(=O)N[C@@H](CO)C(=O)N[C@@H](CCCNC(=N)N)C(=O)N[C@@H](CCCCN)C(=O)N[C@@H]([C@@H](C)O)C(=O)N[C@@H](CCCNC(=N)N)C(=O)N[C@@H](Cc2c[nH]c3ccccc23)C(=O)N1)C(=O)NCC(=O)N[C@@H](CCCCN)C(=O)O		0.02	0.01	0.02	0.01	
CC[C@H](C)[C@@H]1NC(=O)[C@H](CCC(=O)O)NC(=O)[C@H](CC(C)C)NC(=O)[C@@H](NC(=O)[C@H](CC(N)=O)NC(=O)[C@@H]2CCCN2C(=O)CN)CSSC[C@@H]2NC(=O)[C@@H]3CSSC[C@@H](C(=O)N[C@@H](CCCCN)C(=O)N[C@@H](Cc4ccc(O)cc4)C(=O)N[C@@H](CO)C(=O)N[C@H](C(=O)N[C@H](C(=O)N[C@@H](CCCCN)C(=O)O)[C@@H](C)CC)[C@@H](C)CC)NC(=O)[C@H](Cc4c[nH]c5ccccc45)NC(=O)[C@H](CCCNC(=N)N)NC(=O)[C@H]([C@@H](C)O)NC(=O)[C@H](CCCCN)NC(=O)[C@H](CCCCN)NC(=O)[C@H](CO)NC(=O)[C@H](CSSC[C@H](NC(=O)[C@H](C)NC(=O)[C@H](CCCCN)NC(=O)[C@H](Cc4ccccc4)NC1=O)C(=O)N[C@@H](CC(N)=O)C(=O)N1CCC[C@H]1C(=O)N[C@@H](CO)C(=O)N[C@@H](CC(N)=O)C(=O)N[C@@H](CC(=O)O)C(=O)N[C@@H](CCC(N)=O)C(=O)N3)NC(=O)[C@H](C(C)C)NC(=O)[C@H](CC(C)C)NC(=O)[C@H](Cc1ccccc1)NC(=O)[C@H](CO)NC(=O)[C@H](CO)NC(=O)[C@H](CCCCN)NC2=O	17					IC50 [1]: 145 nM; IC50 [10]: 81 nM; IC50 [3]: 267 nM; IC50 [4]: 601 nM; IC50 [11]: > 1000 nM

Reference: US10414808B2 (priority 2012, dated 2019)
